Test results taken from US20150023988A1.

How the values were obtained:
Test in all cases: cell-based or functional assay
[1] = target: human voltage-gated sodium channel Nav1.3 (human) (UniProt Q9NY46)
[2] = target: human voltage-gated sodium channel Nav1.4 (human) (UniProt P35499)
[3] = target: human voltage-gated sodium channel Nav1.7 (human) (UniProt Q15858)
[4] = target: human voltage-gated sodium channel Nav1.4 (human), P35499
[5] = target: human voltage-gated sodium channel Nav1.5 (human), Q14524
[6] = target: human voltage-gated sodium channel Nav1.7 (human), Q15858

| Molecule | PX hNav1.5 Tonic IC50 [5] | PX hNav1.7 Tonic IC50 [6] | PX hNav1.4 Tonic IC50 [4] | further results |
| --- | --- | --- | --- | --- |
| [Glu20;Atz(NPEG10)23]JzTx-V(1-29) (peptide; modification not given) |  |  |  | IC50 (IonWorks Quattro) [1]: > 5000 nM; IC50 (IonWorks Quattro) [2]: > 5000 nM; Nav1.4/Nav1.7 (ratio of IC50s) [2]: 1; IC50 (IonWorks Quattro) [3]: 5000 nM |
| [Glu20;Atz(NPEG10)29]JzTx-V(1-29) (peptide; modification not given) |  |  |  | IC50 (IonWorks Quattro) [1]: > 5000 nM; IC50 (IonWorks Quattro) [2]: > 5000 nM; Nav1.4/Nav1.7 (ratio of IC50s) [2]: 1; IC50 (IonWorks Quattro) [3]: 5000 nM |
| YCQKFMWTCDSKRACCEGLECKLWCRKYI (modifications not checked) [[pI-Phe5;Glu20;Tyr28]JzTx-V(1-29)] |  |  |  | Nav1.4/Nav1.7 (ratio of IC50s) [4]: 30; IC50 (IonWorks Quattro) [5]: > 5000 nM |
| YCQKWLWTCDSKRACCEGLECKLWCRKII (modifications not checked) [[Nle6;Glu20]JzTx-V(1-29)] |  |  |  | IC50 (IonWorks Quattro) [4]: > 5000 nM; IC50 (IonWorks Quattro) [5]: > 5000 nM |
| YCQKWLWTCDSKRACCEGLRCKAWCRKII (modifications not checked) [[Nle6;Atz(NPEG10)23]JzTx-V(1-29)] |  |  |  | IC50 (IonWorks Quattro) [4]: > 7000 nM; IC50 (IonWorks Quattro) [5]: > 7000 nM |
| YCQKFMWTCDSKRACCEGLECKLWCRKYI (modifications not checked) [[Phe5; Glu20; Tyr28]JzTx-V(1-29)] | > 1000 nM | 4.6 nM |  |  |
| YCQKFMWTCDSKRACCEGLECKLWCRKYI (modifications not checked) [[pI-Phe5; Glu20; Tyr28]JzTx-V(1-29)] | > 1000 nM | 2.2 nM | 172 nM |  |
| GYCQKWFWTCDSKRACCEGLECKLWCRKIW (modifications not checked) [Pra-[Phe6; Glu20; Trp29]JzTx-V(1-29)] | 780 nM | 15 nM | 661 nM |  |
| GYCQKWLWTCDSKRACCEGLECKLWCRKIW (modifications not checked) [Pra-[Leu6; Glu20; Trp29]JzTx-V(1-29)] | 1330 nM | 0.571 nM | 1180 nM |  |
| GYCQKWVWTCDSKRACCEGLECKLWCRKIW (modifications not checked) [Pra-[Nva6; Glu20; Trp29]JzTx-V(1-29)] | 5300 nM | 0.818 nM | 968 nM |  |
| YCQKWLWTCDSKRKCCEGLECKLWCRKIW (modifications not checked) [[Nle6; Lys(Pra-NPEG11)14; Glu20; Trp29]JzTx-V(1-29)] | 6100 nM | 520 nM | 2730 nM |  |
| YCQKWLWTCDSKRKCCEGLECKLWCRKIW (modifications not checked) [[Nle6; Lys(Pra-NPEG3)14; Glu20; Trp29]JzTx-V(1-29)] | 3010 nM | 30 nM | 1130 nM |  |
| YCQKWLWTCDSKRACCKGLECKLWCRKIW (modifications not checked) [[Nle6; Lys(Pra-NPEG11)17; Glu20; Trp29]JzTx-V(1-29)] | 3120 nM | 900 nM | 1630 nM |  |
| YCQKWLWTCDSKRACCKGLECKLWCRKIW (modifications not checked) [[Nle6; Lys(Pra-NPEG3)17; Glu20; Trp29]JzTx-V(1-29)] | 580 nM | 570 nM | 453 nM |  |
| KCQKWLWTCDSKRACCEGLECKLWCRKIW (modifications not checked) [[AzK1; Nle6; Glu20; Trp29]JzTx-V(1-29)] | 2560 nM | 3.86 nM | 1740 nM |  |
| YCQKWLWTCDSKRKCCEGLECKLWCRKIW (modifications not checked) [[Nle6; AzK14; Glu20; Trp29]JzTx-V(1-29)] | 1970 nM | 1.15 nM | 635 nM |  |
| YCQKWLWTCDSKRACCKGLECKLWCRKIW (modifications not checked) [[Nle6; AzK17; Glu20; Trp29]JzTx-V(1-29)] | 750 nM | 9.08 nM | 360 nM |  |
| AYCQKWLWTCDSKRACCEGLECKLWCRKIW (modifications not checked) [Aha-[Nle6; Glu20; Trp29]JzTx-V(1-29)] | 3770 nM | 1.12 nM | 1200 nM |  |
| ACQKWLWTCDSKRACCEGLECKLWCRKIW (modifications not checked) [[Aha1; Nle6; Glu20; Trp29]JzTx-V(1-29)] | 2030 nM | 3.21 nM | 767 nM |  |
| YCQKWLWTCDGKRACCEGLRCKLWCRKEI (modifications not checked) [[Nle6; Pra11; Glu28]JzTx-V(1-29)] | 5980 nM | 0.763 nM | 222 nM |  |
| YCQKWLWTCDSKRGCCEGLRCKLWCRKEI (modifications not checked) [[Nle6; Pra14; Glu28]JzTx-V(1-29)] | 3510 nM | 0.493 nM | 105 nM |  |
| YCQKWLWTCDSKRACCGGLRCKLWCRKEI (modifications not checked) [[Nle6; Pra17; Glu28]JzTx-V(1-29)] | 3080 nM | 3.63 nM | 125 nM |  |
